Results: PMC6128652, “Structure of the Cladosporium fulvum Avr4 effector in complex with (GlcNAc)6 reveals the ligand-binding mechanism and uncouples its intrinsic function from recognition by the Cf-4 resistance protein” (PLoS Pathogens, 2018)

B1: WT-CfAvr4 w/o tag: wild-type CfAvr4 with the purification tag removed (protein, UniProt Q00363 30-135, looked up)
Race-specific elicitor A4: KAPKTQPYNPCKPQEVIDTKCMGPKDCLYPNPDSCTTYIQCVPLDEVGNAKPVVKPCPKGLQWNDNVGKKWCDYPNLSTCPVKTPQPKPKKGGVGGKKASVGHPGY
B2: WT-CfAvr4: wild-type Avr4 effector protein of Cladosporium fulvum, CBM14 chitin-binding lectin, E. coli-produced mature form Lys30-Gln115 (protein)
chain: KAPKTQPYNPCKPQEVIDTKCMGPKDCLYPNPDSCTTYIQCVPLDEVGNAKPVVKPCPKGLQWNDNVGKKWCDYPNLSTCPVKTPQ
modifications: left off: 6x His (two), N-terminal, cleaved

Assay: Isothermal titration calorimetry (ITC) of CfAvr4 variants with chitin hexasaccharide
Assay type: binding
Conditions: (GlcNAc)6 titrated into protein
Experimental: A stock solution of the monomer of N-acetylglucosamine was prepared by dissolving the dry powder in a buffer containing 10 mM Bis-Tris, pH 6.5, 100 mM NaCl to a concentration of 0.100 g/L using analytic techniques. Standard solution of 0, 0.010, 0.025, 0.050, 0.075 g/L were prepared by serial dilutions. Using glass test tubes and pipets, 100 μL of each standard was mixed with 300μL of concentrated sulfuric acid and vortexed for 10 sec to mix. Solutions were incubated at RT for 10 min and then placed on ice to stop the reaction. […] Analytically prepared solution of the di- and tri-saccharide scaled linearly to the calibration curve. To determine the concentration of the chitin hexasaccharide solutions used in ITC, the solutions were diluted into the dynamic range of the calibration curve (S12 Fig) and subjected to the above procedure.
All ITC experiments were performed on a TA Instruments low volume NanoITC with a 186uL reaction cell and a reference cell filled with degassed Milli-Q grade water. Reactions were run in a buffer containing 10mM Bis-Tris, pH 6.5, 100 mM NaCl. […] The integrated heats, after correction for the heat of dilution were analyzed using the NanoAnalyze software from ITC Technologies. […]

| Molecule | n (stoichiometric ratio) |
| --- | --- |
| B1 | 1.09 ± 0.12 |
| B2 | 1.09 ± 0.12 |
